Results of unrelated studies side by side (data: NIAID ChemDB).

All rows: whole-cell or culture tests; agent: HIV-1; cells: MT-4; measure: EC50

ECn is the concentration giving n% inhibition of infection, replication or growth.

SMILES,strain,changes,method,setting,result
Cc1cn([C@H]2C[C@H](N=[N+]=[N-])[C@@H](CO)O2)c(=O)[nH]c1=O,IIIB,,ELISA / antigen,,0.04 µM
CC(C)CN(C[C@@H](O)[C@H](Cc1ccccc1)NC(=O)O[C@H]1CCOC1)S(=O)(=O)c1ccc(N)cc1,HXB2,,MTT,,0.082 µM
Cc1cn([C@H]2C[C@H](N=[N+]=[N-])[C@@H](CO)O2)c(=O)[nH]c1=O,IIIB,,cytopathic effect,,0.06 µM
Cc1cn([C@H]2C[C@H](N=[N+]=[N-])[C@@H](CO)O2)c(=O)[nH]c1=O,IIIB,,cytopathic effect / MTT,,0.0053 µM
C1CNCCNCCCN(CCCN2CCCNCCNCCCNCC2)CCNC1,NL4-3,,cytopathic effect / MTT,,0.32 µg/mL
CO[C@H]1O[C@@H](n2ccc(=O)[nH]c2=O)C[C@@H]1N=[N+]=[N-],IIIB,,ELISA / antigen,,0.36 µM
Cn1ncc2c1S(=O)(=O)N(Cc1cccc(Cl)c1)C(=O)N2Cc1ccccc1C#N,IIIB,,cytopathic effect / MTT,,>283.1 µM
CC(Sc1nc2ncccc2n1-c1ccc(C2CC2)c2ccccc12)C(=O)Nc1ccc(C(N)=O)cc1Cl,IIIB,,MTT,,0.38 µM
COC(=O)[C@H](C)NP(=O)(OC[C@@H]1C=C[C@H](n2cc(C)c(=O)[nH]c2=O)O1)Oc1ccccc1,IIIB,,trypan blue,5 d,0.07 µM
Cc1cc(/C=C/C#N)cc(C)c1Oc1nc(Nc2ccc(CN3CCN(S(N)(=O)=O)CC3)cc2)nc2ccsc12,IIIB,,MTT,,0.007 µM
Cc1ccnc2c1NC(=O)c1cccnc1N2C1CC1,IIIB,,cytopathic effect / MTT,,0.03 µM
C1CNCCCNCCCNC1,IIIB,,cytopathic effect / MTT,,>85 µM
O=C1CSC(c2cccnc2)N1Cc1ccco1,IIIB,,cytopathic effect,,271 µM
Cn1ncc2c1S(=O)(=O)N(Cc1cccc(Cl)c1)C(=O)N2Cc1ccc(Cl)cc1,IIIB,,cytopathic effect / MTT,,>277.2 µM
Fc1cccc(F)c1C1OCc2nc3ccccc3n21,IIIB,,cytopathic effect / MTT,,7.9 µM
CCOC(=O)C(=O)CC(=O)c1ccc(Oc2ccnc(Nc3ccc(C#N)cc3)n2)cc1,IIIB,Y188L,MTT,,>22 µM
Cn1ncc2c1S(=O)(=O)N(Cc1cccc(Cl)c1)C(=O)N2Cc1ccccc1Cl,IIIB,,cytopathic effect / MTT,,>272.2 µM
CC(C)CN(C[C@@H](O)[C@H](Cc1ccccc1)NC(=O)[C@H](CC(N)=O)NC(=O)c1ccc2ccccc2n1)C(=O)NC(C)(C)C,PR-WT,,p24,,<0.05 µM
CC(C)(C)C(=O)SCCOC(=O)P(=O)(OCCSC(=O)C(C)(C)C)OCCSC(=O)C(C)(C)C,IIIB,,cytopathic effect / MTT,,>10 µM
CCc1cc(NCc2nc3c(C)ccc(C)c3o2)c(=O)[nH]c1C,MN,,p24,,<0.05 µM
Cc1cn([C@H]2C[C@H](N=[N+]=[N-])[C@@H](CO)O2)c(=O)[nH]c1=O,EVK,,p24,,<10 µM
N#Cc1ccc(Nc2nccc(C(O)c3cccc4ccccc34)n2)cc1,,K103N/Y181C,MTT,,>6.5 µM
C(CCC1CNCCNCCCNCCNC1)CCC1CNCCNCCCNCCNC1,RF,,cytopathic effect / MTT,4 d,0.3 µM
CCOC(=O)P(=O)(OCc1ccc(Cl)cc1)OCc1ccc(Cl)cc1,IIIB,,cytopathic effect / MTT,,>10 µM
O=C(CSc1nc2ncccc2n1-c1ccc(C2CC2)c2ccccc12)Nc1ccc(C(=O)O)cc1Cl,RES056,,MTT,,>1.12 µM
CCOCn1c(Cc2ccccc2)c(C(C)C)c(=O)[nH]c1=O,,,cytopathic effect,,0.008 µM
C1CNCCNCC(CCOCCOCCC2CNCCNCCCNCCNC2)CNCCNC1,MN,,cytopathic effect / MTT,5 d,6.3 µM
Cc1cn([C@@H]2OC3(COP4(=O)OCc5ccccc5O4)CO[C@@H]2[C@@H]3N=[N+]=[N-])c(=O)[nH]c1=O,IIIB,,antigen,,>300 µM
C1CNCCNCCCNCCNC1.O=S(=O)([O-])[O-].[O]=[V+2],IIIB,,MTT,,>340 µM
CCC(NC(=O)c1ccc(NC(=O)CSc2nc3ncccc3n2-c2ccc(C3CC3)c3ccccc23)c(Cl)c1)C(=O)O,IIIB,,MTT,,0.087 µM
Cc1cc(C(O)c2ccc3ccccc3c2)nc(Nc2ccc(C#N)cc2)n1,,K103N/Y181C,MTT,,>31.2 µM
O=C(CSc1nc2ncccc2n1-c1ccc(C2CC2)c2ccccc12)Nc1cccnc1Cl,IIIB,,MTT,,0.22 µM
CC(C)=CCN1c2cc(Cl)cc3[nH]c(=S)n(c23)C[C@@H]1C,WT,,,,<0.1 µM
CC(C)=CCN1Cc2cc(Cl)cc3[nH]c(=S)n(c23)C[C@@H]1C,IIIB/LAI,,p24,,0.01–0.02 µg/mL
CC(C)CN(C[C@@H](O)[C@H](Cc1ccccc1)NC(=O)O[C@H]1CCOC1)S(=O)(=O)c1ccc(N)cc1,,,,,0.032 µM
C1CNCCNCCNCCN1,IIIB,,cytopathic effect / MTT,,>20 µM
CC(C)=CCOc1cc(NC(=S)c2ccoc2C)ccc1Cl,Recombinant,RT-V106A P225H,cytopathic effect,,0.517 µM
CCc1c(Sc2ccccc2)nc(SCC(=O)c2ccc(OC)cc2)[nH]c1=O,IIIB,,cytopathic effect / MTT,,6.72 µM
CC(C)[C@H](NC(=O)N(C)C)C(=O)N[C@@H](Cc1ccccc1)C[C@H](O)[C@H](Cc1ccccc1)NC(=O)OCc1cncs1,,,cytopathic effect / MTT,,1.8 µM
Cc1ccnc2c1NC(=O)c1cccnc1N2C1CC1,IIIB,Y188L,MTT,,>15 µM
CC(Sc1nc2ncccc2n1-c1ccc(C2CC2)c2ccccc12)C(=O)Nc1ccc(S(N)(=O)=O)cc1Cl,IIIB,,MTT,,0.15 µM
CC(C)CN([C@H](CO)CCCCNC(=O)[C@@H](NC(=O)c1ccc(N)nc1)C(c1ccccc1)c1ccccc1)S(=O)(=O)c1ccc(N)cc1,4596 PR-M46I V82T I84V L10R L63P,PR-M46I V82T I84V L10R L63P,cytopathic effect / MTT,,0.072 µM
Nc1cccc2c1ncn2[C@@H]1O[C@H](CO)[C@@H](O)[C@@H]1O,IIIB,,cytopathic effect / MTT,,>125 µg/mL
Cc1cn(C2O[C@@]3(CO)COC2C3)c(=O)[nH]c1=O,IIIB,,antigen,,>300 µM
CC(C)(C)NC(=O)[C@@H]1CC2CCCCC2CN1C[C@@H](O)[C@H](Cc1ccccc1)NC(=O)[C@H](CC(N)=O)NC(=O)c1ccc2ccccc2n1,NL4-3,,,,0.017 µM
O=C1CCSC(c2c(F)cccc2F)N1Cc1ccco1,IIIB,RT,cytopathic effect,,37.5 µM
CCOCc1cn([C@H]2C[C@H](N=[N+]=[N-])[C@@H](CO)O2)c(=O)[nH]c1=O,IIIB,,ELISA / antigen,,>100 µM
CCc1cc(NCc2nc3c(Cl)ccc(Cl)c3o2)c(=O)[nH]c1C,NL4-3,RT-K101D L100I,p24,,>3 µM
C=C1[C@H](CO)[C@@H](O)C[C@@H]1n1cnc2c(=O)[nH]c(N)nc21,IIIB,,MTT,,0.0022 µM
Cc1nc(N2C(=O)CSC2c2c(F)cccc2F)ccc1Br,IIIB,,cytopathic effect,,1.29 µM
COc1ccc2c(c1)N(C(=O)OC(C)C)[C@@H](CSC)C(=S)N2,,,cytopathic effect,,0.001 µM
Nc1ccn([C@H]2CC[C@@H](CO)O2)c(=O)n1,IIIB,,MTT,,1.468 µM
CCCCCCCCOC(=O)P(=O)(O)OC[C@H]1O[C@@H](n2cc(C)c(=O)[nH]c2=O)C[C@@H]1N=[N+]=[N-],IIIB,,cytopathic effect / MTT,,0.06 µM
O=C1CSC(c2c(Cl)cccc2Cl)N1C1CCCCC1,IIIB,,cytopathic effect,,4.24 µM
Cc1ccc(C(=O)N[C@H](C(=O)NCCCC[C@@H](CO)N(CC(C)C)S(=O)(=O)c2ccc(N)cc2)C(c2ccccc2)c2ccccc2)cn1,NL4-3,,cytopathic effect / MTT,,0.024 µM
CO[C@H]1O[C@@H](n2ccc(=O)[nH]c2=O)C[C@@H]1N=[N+]=[N-],IIIB,,RT activity,,0.6 µM
C1CNCCNCC(CCCC2CNCCNCCCNCCNC2)CNCCNC1,RF,,cytopathic effect / MTT,5 d,0.14 µM
Cn1ncc2c1S(=O)(=O)N(Cc1cccc(Cl)c1)C(=O)N2Cc1ccccc1,IIIB,,cytopathic effect / MTT,,>300.1 µM
CCc1c(Sc2cccc3ccccc23)nc(SCC(=O)c2ccccc2)[nH]c1=O,IIIB,,cytopathic effect / MTT,,0.37 µM
CCCCCCOCc1cn([C@H]2C[C@H](N=[N+]=[N-])[C@@H](CO)O2)c(=O)[nH]c1=O,IIIB,,ELISA / antigen,,>100 µM
C=C(C)OC(=O)N1c2cc(Cl)ccc2NC(=S)C1(C)C,,,cytopathic effect,,0.002 µM
Cc1ccc(CN2C(=O)CSC2c2c(F)cccc2F)o1,IIIB,,cytopathic effect,,13.06 µM
Fc1cccc(F)c1C1SCc2nc3ccccc3n21,IIIB,,cytopathic effect / MTT,,0.6 µM
C1CNCCNCC(CCC2CNCCNCCCNCCNC2)CNCCNC1,RF,,cytopathic effect / MTT,4 d,0.72 µM
Cc1cn([C@@H]2O[C@@]3(CO)CO[C@@H]2[C@@H]3N=[N+]=[N-])c(=O)[nH]c1=O,IIIB,,antigen,,>300 µM
c1ccc(C2SCc3nc4ccccc4n32)cc1,IIIB,RT,cytopathic effect,,0.35 µM
Cc1ccnc2c1NC(=O)c1cccnc1N2C1CC1,WT,,cytopathic effect / MTT,,0.4 µM
CC(C)(C)C(=O)SCCOC(=O)P(=O)(O)OCCSC(=O)C(C)(C)C,IIIB,,cytopathic effect / MTT,,44 µM
Nc1ncnc2c1ncn2[C@@H]1O[C@@]2(CO)CO[C@@H]1C2,IIIB,,antigen,,>300 µM
CCCCCOCc1cn([C@@H]2C[C@H](N=[N+]=[N-])[C@@H](CO)O2)c(=O)[nH]c1=O,IIIB,,ELISA / antigen,,73 µM

Again, the opening 5 rows:

{"SMILES": "Cc1cn([C@H]2C[C@H](N=[N+]=[N-])[C@@H](CO)O2)c(=O)[nH]c1=O", "strain": "IIIB", "method": "ELISA / antigen", "result": "0.04 µM"}
{"SMILES": "CC(C)CN(C[C@@H](O)[C@H](Cc1ccccc1)NC(=O)O[C@H]1CCOC1)S(=O)(=O)c1ccc(N)cc1", "strain": "HXB2", "method": "MTT", "result": "0.082 µM"}
{"SMILES": "Cc1cn([C@H]2C[C@H](N=[N+]=[N-])[C@@H](CO)O2)c(=O)[nH]c1=O", "strain": "IIIB", "method": "cytopathic effect", "result": "0.06 µM"}
{"SMILES": "Cc1cn([C@H]2C[C@H](N=[N+]=[N-])[C@@H](CO)O2)c(=O)[nH]c1=O", "strain": "IIIB", "method": "cytopathic effect / MTT", "result": "0.0053 µM"}
{"SMILES": "C1CNCCNCCCN(CCCN2CCCNCCNCCCNCC2)CCNC1", "strain": "NL4-3", "method": "cytopathic effect / MTT", "result": "0.32 µg/mL"}

Lines come from different laboratories, so protocols vary. Two numbers with a dash give a range or band. Blank or dashed fields: not listed here.